Measured values from several laboratories, pooled; numbers as filed in NIAID ChemDB.

All rows: growth or infection tests; organism: Candida albicans; endpoint: MIC100

A number after MIC or MFC names an inhibition level or a share of isolates.

smiles | method | strain | value
O=C(Cc1ccccc1)Nc1ccc(Cc2nc3ccccc3s2)cc1 | broth dilution | ATCC 10231 | 25 µg/mL
CCCCCCCCCCCCn1cc[n+](COCCCCCCOC[n+]2ccn(CCCCCCCCCCCC)c2)c1 | agar diffusion | ATCC 90028 | 15 µM
O=c1ccc2c(ccc3nc(N4CCN(c5ccc(F)cc5)CC4)sc32)o1 |  | MTCC 183 | 100 µg/mL
COc1ccc(-c2c3c(N)c4c(nc3nc3c2c(C)nn3-c2ccccc2)CCCCC4)cc1 | broth dilution / absorbance | ATCC 10231 | 250 µg/mL
O=c1ccc2c(ccc3nc(N4CCC(Cc5ccccc5)CC4)sc32)o1 |  | MTCC 183 | 200 µg/mL
Cc1ccc(-c2c3c(N)c4c(nc3nc3c2c(C)nn3-c2ccccc2)CCCC4)cc1 | broth dilution / absorbance | CCC 129 | 62.5 µg/mL
FC(F)(F)c1nc(OCc2nc(-c3cccs3)n[nH]2)c2ccccc2n1 |  | MTCC 227 | 6.25 µg/mL
O=C(Cc1ccccc1)Nc1ccc(-c2nc3ccccc3s2)cc1 | broth dilution | ATCC 10231 | 25 µg/mL
Cc1ccc(-c2c3c(N)c4c(nc3nc3c2c(C)nn3-c2ccccc2)CCCCC4)cc1 | broth dilution / absorbance | CCC 126 | 125 µg/mL
Cn1c(=O)ccc2c3sc(N4CCN(c5ccccn5)CC4)nc3ccc21 |  | MTCC 183 | 200 µg/mL
FC(F)(F)c1nc(OCc2nc(-c3ccc(Cl)cc3)n[nH]2)c2ccccc2n1 |  | MTCC 227 | 6.25 µg/mL
CCCCCCCCCCCn1cc[n+](COCCOC[n+]2ccn(CCCCCCCCCCC)c2)c1 | agar diffusion | ATCC 90028 | 17 µM
O=c1ccc2c(ccc3nc(N4CCN(c5ccccc5Cl)CC4)sc32)o1 |  | MTCC 183 | 200 µg/mL
Cc1nc(OCc2nc(-c3ccco3)n[nH]2)c2ccccc2n1 |  | MTCC 227 | 12.5 µg/mL
CCCCCCCCCCCn1cc[n+](COCCCCCCOC[n+]2ccn(CCCCCCCCCCC)c2)c1 | agar diffusion | ATCC 90028 | 8 µM
Cn1c(=O)ccc2c3sc(N4CCN(c5ncccn5)CC4)nc3ccc21 |  | MTCC 183 | 100 µg/mL
O=C(Nc1ccc(Cc2nc3ccccc3s2)cc1)c1ccc(F)cc1 | broth dilution | ATCC 10231 | 25 µg/mL
c1coc(-c2n[nH]c(COc3ncnc4ccccc34)n2)c1 |  | MTCC 227 | 6.25 µg/mL
O=C(Nc1ccc(Cc2nc3ccccc3s2)cc1)c1ccc(Br)cc1 | broth dilution | ATCC 10231 | 25 µg/mL
CC1CC(C)CN(c2nc3ccc4c(ccc(=O)n4C)c3s2)C1 |  | MTCC 183 | 50 µg/mL
CC(C)(C)c1ccc(C(=O)Nc2ccc(Cc3nc4ccccc4s3)cc2)cc1 | broth dilution | ATCC 10231 | 25 µg/mL
O=c1ccc2c(ccc3nc(N4CCN(Cc5ccccc5)CC4)sc32)o1 |  | MTCC 183 | 500 µg/mL
CCCCCCCn1cc[n+](COCCOC[n+]2ccn(CCCCCCC)c2)c1 | agar diffusion | ATCC 90028 | 20 µM
Cc1ccc(-c2c3c(N)c4c(nc3nc3c2c(C)nn3-c2ccccc2)CCC4)cc1 | broth dilution / absorbance | CCC 126 | 125 µg/mL
COc1ccc(CN2CCN(c3nc4ccc5oc(=O)ccc5c4s3)CC2)c(OC)c1OC |  | MTCC 183 | 25 µg/mL

For reference, 3 entries again:

smiles	method	strain	value
O=C(Nc1ccc(Cc2nc3ccccc3s2)cc1)c1ccc(F)cc1	broth dilution	ATCC 10231	25 µg/mL
CC1CC(C)CN(c2nc3ccc4c(ccc(=O)n4C)c3s2)C1		MTCC 183	50 µg/mL
CCCCCCCCCCCCn1cc[n+](COCCCCCCOC[n+]2ccn(CCCCCCCCCCCC)c2)c1	agar diffusion	ATCC 90028	15 µM

Lines come from different laboratories, so protocols vary. An empty or dashed field is not shown.